Results of unrelated studies side by side (data: NIAID ChemDB).

Common to all: tests on isolated targets; species: HIV-1; target: Reverse transcriptase; measure: inhibition

An empty or dashed field is not shown. Lines come from different laboratories, so protocols vary. Percent inhibition refers to the dose given; in toxicity tests it is the harm to the cells.

smiles,method,changes,tested at,strain,result
COC(=O)C1(O)C[C@@H](OC(=O)/C=C/c2ccc(O)c(O)c2)C(OC(=O)/C=C/c2ccc(O)c(O)c2)[C@H](OC(=O)/C=C/c2ccc(O)c(O)c2)C1,RT activity / absorbance,-,100 µg/mL,-,54.5%
CCN1c2ncc(Cc3cccc(O)c3)cc2C(=O)N(C)c2ccc(Cl)nc21,nucleotide incorporation / radiometric,RT-Y181C,1 µM,-,86%
CC(C)(C)c1coc(N2C(=O)CSC2c2c(Cl)ncnc2Cl)n1,RT activity / ELISA / absorbance,-,100 µg/mL,-,31.14%
COc1cc(O)ccc1/C=C/C(=O)c1ccc(O)cc1O,RT activity / ELISA,-,200 µg/mL,-,34.01%
CN(c1ncccc1CO)C1CCN(C(=O)c2cc3cc(NS(C)(=O)=O)ccc3[nH]2)CC1,nucleotide incorporation,RT-Y181C,50 µM,IIIB,15%
COc1cc(O)c2c(=O)cc(-c3ccc(O)cc3)oc2c1,RT activity / absorbance,-,100 µg/mL,-,46.2%
O=C1CSC(c2c(Cl)ncnc2Cl)N1c1ccccn1,RT activity / ELISA / absorbance,-,10 µg/mL,-,7.27%
O=c1c(O)c(-c2ccc(O)c(O)c2)oc2cc(O)cc(O)c12,RT activity / ELISA,-,200 µg/mL,-,43.41%
O=C1CSC(c2c(F)cccc2Cl)N1n1cnnc1,RT activity / ELISA / absorbance,-,10 µg/mL,-,19.2%
Oc1cc(O)c2c(c1)O[C@H](c1ccc(O)c(O)c1)[C@H](O)C2,nucleotide incorporation,-,20 µg/mL,-,22%
O=C(/C=C/c1ccc(O)c(O)c1)O[C@@H]1CC(O)(C(=O)O)C[C@@H](OC(=O)/C=C/c2ccc(O)c(O)c2)C1O,-,-,50 µg/mL,LAI,45%
C=C1[C@H]2CCC3C(CCC4[C@@]3(C)CCC[C@@]4(C)C(=O)O)(C2)[C@@H]1O,RT activity,-,200 µg/mL,-,20.5%
CO[C@H]1O[C@H](CN2C(=O)CS[C@@H]2c2c(Cl)cccc2Cl)[C@@H](O)[C@H](O)[C@H]1O,ELISA,-,25 µg/mL,-,55.8%
CCN1c2ncc(CCc3ccccc3)cc2C(=O)Nc2c(C)cc(Cl)nc21,nucleotide incorporation / radiometric,-,1 µM,WT,94%
O=C1CSC(c2c(Cl)ncnc2Cl)N1c1nc(Cl)cc(Cl)n1,RT activity / ELISA / absorbance,-,100 µg/mL,-,44.9%
C[C@@]12CCC[C@@](C)(C(=O)O)C1CC[C@@]13C[C@H](CCC12)[C@@](O)(CO)C3,RT activity,-,200 µg/mL,-,25.2%
CO[C@H]1/C=C/O[C@@]2(C)Oc3c(C)c(O)c4c(c3C2=O)C(=O)C(SCCOC(=O)CCCC(=O)OC[C@@H]2O[C@H](n3cc(C)c(=O)[nH]c3=O)C[C@H]2N=[N+]=[N-])=C(NC(=O)/C(C)=C\C=C\[C@H](C)[C@H](O)[C@@H](C)[C@@H](O)[C@@H](C)[C@H](OC(C)=O)[C@@H]1C)C4=O,RT activity,-,300 µM,IIIB,38%
O=C(/C=C/c1ccc(O)c(O)c1)O[C@@H]1[C@H](O)C[C@@](O)(C(=O)O)C[C@H]1OC(=O)/C=C/c1ccc(O)c(O)c1,RT activity / absorbance,-,100 µg/mL,-,65%
CCn1cnc2ncn([C@@H]3O[C@H](CO[Si](C)(C)C(C)(C)C)C4(OS(=O)(=O)C=C4N)[C@H]3O[Si](C)(C)C(C)(C)C)c2c1=O,ELISA,-,16 µM,-,58%
O=C(O)[C@H]1O[C@@H](Oc2cc3oc(-c4ccccc4)cc(=O)c3c(O)c2O)[C@H](O)[C@@H](O)[C@@H]1O,-,-,5 µg/mL,LAV,46.49%
NC(=O)NC1NC(=O)NC1=O,RT activity,-,200 µg/mL,-,7.7%
CC(=O)c1ccc(C)cc1NC(C(N)=O)c1c(Cl)cccc1Cl,-,-,0.8 µg/mL,-,32.9%
CCc1c(Sc2ccccn2)n(COCc2ccccc2)c(=O)[nH]c1=O,-,-,50 µM,WT,95%
CO[C@H]1/C=C/O[C@@]2(C)Oc3c(C)c(O)c4c(c3C2=O)C(=O)C(SCCCCCCCOC(=O)CCCC(=O)OC[C@H]2O[C@@H](n3cc(C)c(=O)[nH]c3=O)C[C@@H]2N=[N+]=[N-])=C(NC(=O)/C(C)=C\C=C\[C@H](C)[C@H](O)[C@@H](C)[C@@H](O)[C@@H](C)[C@H](OC(C)=O)[C@@H]1C)C4=O,RT activity,-,300 µM,IIIB,33%
C=CCc1ccc(O)c(-c2ccc(O)c(CC=C)c2)c1,RT activity,-,500 µg/mL,LAV,33.2%
C[C@@]12CCC[C@@](C)(C(=O)O)C1CC[C@@]13C[C@H](CCC12)[C@](C)(O)C3,RT activity,-,200 µg/mL,-,8.2%
CC1(C)[C@@H](O[C@H]2O[C@H](C(=O)O)[C@@H](O)[C@H](O)[C@H]2O[C@@H]2O[C@H](C(=O)O)[C@@H](O)[C@H](O)[C@H]2O)CC[C@]2(C)[C@H]3C(=O)C=C4[C@@H]5C[C@@](C)(C(=O)O)CC[C@]5(C)CC[C@@]4(C)[C@]3(C)CC[C@@H]12,-,-,500 µg/mL,-,98.3%
COC(=O)C(=O)OC1(C(=O)O)C[C@@H](OC(=O)/C=C/c2ccc(O)c(O)c2)C(O)[C@H](OC(=O)/C=C/c2ccc(O)c(O)c2)C1,-,-,50 µg/mL,LAI,88%
CO[C@H]1/C=C/O[C@@]2(C)Oc3c(C)c(O)c4c(c3C2=O)C(=O)C(SCCOC(=O)CCC(=O)OC[C@H]2O[C@@H](n3cc(C)c(=O)[nH]c3=O)CC2O)=C(NC(=O)/C(C)=C\C=C\[C@H](C)[C@H](O)[C@@H](C)[C@@H](O)[C@@H](C)[C@H](OC(C)=O)[C@@H]1C)C4=O,RT activity,-,300 µM,IIIB,38%
CCN1c2ncc(CNc3cccc([N+](=O)[O-])c3)cc2C(=O)N(C)c2ccc(Cl)nc21,nucleotide incorporation / radiometric,RT-Y181C,1 µM,-,72%
C=C1CC23CCC4[C@@](C)(CCC[C@@]4(C)C(=O)O)C2CC[C@H]1C3,RT activity,-,200 µg/mL,-,97.9%

Repeating the final 2 entries:

smiles,method,changes,tested at,strain,result
CCN1c2ncc(CNc3cccc([N+](=O)[O-])c3)cc2C(=O)N(C)c2ccc(Cl)nc21,nucleotide incorporation / radiometric,RT-Y181C,1 µM,-,72%
C=C1CC23CCC4[C@@](C)(CCC[C@@]4(C)C(=O)O)C2CC[C@H]1C3,RT activity,-,200 µg/mL,-,97.9%